Assay: general procedure: solution-phase peptide synthesis

Row | Substance | step yield (late stage modification step) | step yield (coupling step)
1 | (3-Cyclohexyl-2(R)-methyl-1-oxopropyl)-(N--Me) Val-Tbg-CH2 --(R)--CH(CH2 C(O)CMe3)--C (O)-Asp(cyPn)-NH--(R)--CH(Et)CMe3 | 97% | 
2 | Boc-(N-Me) Val-Tbg-CH2 --(R)--CH(CH2 C(O)CMe3)C(O)-Asp(cyPn)-(Bzl)--NH--(R)--CH (Et)CMe3 |  | 89%

Reference: patent publication US5672586A (Bio-Mega/Boehringer Ingelheim Research, Inc., priority 1995, dated 1997)
